Test results: the supplement of paper PMC9931576
Human monoclonal antibodies against the spike receptor-binding domain (heavy:light variable regions). IC50 against pseudoviruses bearing the spike of naturally observed variants; lower = stronger; >10 µg/ml means not reached at the top dose. No active / inactive call. The stated detection limit is 0.0005 µg/ml; values near or below 0.001 µg/ml lie at the floor of the assay.

B1: BD56-1445 (protein)
chain 1: EVQLVESGGGLVQPGGSLRLSCAASGFTFRNYWMSWVRQAPGKGLEWVANIKLDGSEKYYVDSVKGRFTISRDNAKNSLFLQMNSLRADDTAVYYCAREPTYYSGFDYWGQGTLVTVSS
chain 2: KFMLTQPHSVSESPGKTVTISCTGSSGSIASNYVQWYQQRPGSAPTTVIYEDNERPSGVPDRFSGSIDSSSNSASLTISGLKTEDEADYYCQSYDGNNQRVFGGGTKLTVL
B2: BD56-1461 (protein)
chain 1: EVQLVESGGGLVQPGGSLRLSCAASGIIVSRNYMTWVRQAPGKGLEWVSLIYPGGSTFYADSVKGRFTISRHNSENTLYLQMSSLRLEDTAVYYCARHPYNRPISWGQGTLVTVSS
chain 2: DIQMTQSPSSLSASVGDRVTITCQATQDILNYLNWYQQKPGKAPKVLIYDSSNLETGVPSRFSGSGSGTNFTFTISSLQPEDIATYYCQQYDNLPITFGQGTRLDIK
B3: BD56-1469 (protein)
chain 1: QVQLVESGGGLVKPGGSLRLSCAASGFMFSDFHMSWIRQAPGKGLEWISYIPSSSSYTNYADSVKGRFTISRDNAKNSMYLQMNSLRVEDTAVYYCARLQQIYCSGGSCYSGNYIDYWGQGTLVTVSS
chain 2: EIVMTQSPATLSVSPGERATLSCRASQSVTSNLAWYQQKPGQAPKLLIYGASTRATGIPARFSGGGSGTDFTLTISSLQSEDFAVYYCQQYDSWPGTFGQGTKLEIK
B4: COV2-2353 (protein)
chain 1: EVQLVQSGAEVKKPGESLKISCKGFGYNFTNYWIGWVRQMPGKGLEWMGIIYPGDSETRNSPSFQGQVTISADKSMSTAYLQWSSLKASDTAMYYCARLGVSKYCSGGRCLSGGSNWFDPWGQGTLVTVSS
chain 2: not shown
B5: BD56-1453 (protein)
chain 1: QVQLVQSGVEVKKPGASVKVSCKASGYTFTNFYIHWVRQAPGQGPEWMGIFNPTDGSRRYAQKFQGRVTMTGDTSTTTVYMELSSLRSEDTAVYYCARSMYTTSSEGYYYSYYLDVWGKGTTVTVSS
chain 2: QSALTQPASVSGSPGQSITISCTGTSSDVGVYNYVSWYQQHPGKAPKLMIYDVNKRPSGVSNRFSGSKSGNTASLTISGLQAEDEADYYCSSYTSSSIHEVFGGGTKLTVL
B6: BD56-1463 (protein)
chain 1: QVQLVQSGAEVKKPGASVKVSCKASGYTFTSYYMYWVRQAPGQGLEWMGIINPSGGDTRYAQKFQGRVTMTRDTSTSTVYMELSSLRSEDTAVFYCARSMYSTSSEGDYYSYYMDVWGEGTTVTVSS
chain 2: QSALTQPASVSGSPGQSITISCTGTSSDVGTYNFVSWYQQHPGRAPKLLIYDVTKRPSGFSNRFSGSKSGNTASLTISGLQAEDEADYYCSSYTSISIHVIFGGGTKLTVL
B7: BD56-1468 (protein)
chain 1: QVQLVQSGAEVKKPGASVKVSCKASGYTFTNYYIHWVRQAPGQGLEWMGIVNPSDGSTNYAQKSQGRVTMTRDTSTSTVYLELSSLTSGDTALYYCARSMYSTSSEGYFYYYYLDIWGTGTTVTVSS
chain 2: QSALTQPASVSGSPGQSITISCTGTNRDVGVYNYVSWYQQHPGQAPKLMMYDVGKRPSGVSSRFSGSKSVNTASLTISGLQAEDEADYYCSSWTSTNTQVVFGGGTRLTVL
B8: BD56-1471 (protein)
chain 1: QVQLVQSGAEVKKPGAPVKVSCKASGYTFTSNYMHWVRQAPGQGLEWMGIINPSDGSTRYAQNFQGRVTMTRDTSTSTVYMELSSLRSEDTAVYYCARSMYSTSSEDYYYYYYMDVWGKGTTVTVSS
chain 2: QSALTQPASVSGSPGQSITISCTGTSSDIGVYNYVSWYQQHPGKAPKLIIYDVTKRPSGVSNRFSGSRSGNTASLTISGLQTEDEVDYFCSSYSSITTHVVFGGGTKLTVL
B9: COV2-2628 (protein)
chain 1: EVQLVESGGGLVQPGRSLRLSCAASGFTFDDYAMHWVRQAPGKGLEWVSGISWNSGTIGYADSVKGRFIISRDNAKNSLYLQMNSLRPEDTALYYCAKDIIRQGEDGMDVWGQGTTVTVSS
chain 2: DIQMTQSPSSLSASVGDRVTITCRASQNIASYLNWYQQKPGKAPKLLIYAASSLQSGVPSRFSGSGSGTDFTLTISSLQPEEFATYYCHQSYFTPQTFGQGTKLEIK
B10: BD56-1452 (protein)
chain 1: QVQLQESGPGLVRPSDTLSLTCSVSGGSISHYYWNWIRQSPGKGLEWIGYVFYSGSTNYNPSLWSRVTISVDTSKNQFSLNLRSVTAADTALYYCARDRGDRSGWPDALDIWGQGTMVTVSS
chain 2: DIQMTQSPPSLSASVGDRVTITCQASQDITNYLNWYQLKPGKAPKLLIYDASNLETGVPSRFSGRGSGTDFSFTISSLQPEDIATYYCQQYDNIPWTFGQGTKVEIK
B11: BD56-1440 (protein)
chain 1: EVQLVESGGGLIQPGGSLKLSCAASGFTFSNYDMHWVRQTPGKGLEWVSVIGTAGDGYYPDSVKGRFTISRENAKNSLYLQMNSLRAGDTAVYYCARGRGGGYQEGPYFDFWGQGTLVTVSS
chain 2: DIQMTQSPSSLSASVGDRVTITCRASQTIRTYLNWYQQKPGKAPKLLIYAASTLHTGVPSRFSGSGSGTDFTLTISSLQPEDFATYYCQQSYSIPPLTFGGGTKVEIK
B12: BD56-1455 (protein)
chain 1: EVQLEESGGGLVQPGGSLRLSCAASGFIFGNYDMHWVRQTTGTDLEWVSIIGTAGDAYYPDSVKGRFTVSRDNAKNSLYLQMSSLRVGDTGVYYCARGRGGTYQEGPYFDYWGQGTLVTVSS
chain 2: DIQMTQSPSSLSASVGDRVTITCRASQTITNYLNWYQQKPGKAPKLLIYAASKLQSGVPSRFSGSGSGTDFTLTISSLQPEDFATYYCQQSYSIPPLTFGGGTKVEIK
B13: BD56-1443 (protein)
chain 1: EVQLVESGGGLVQPGRSLRLSCAASGFTFDDYAMHWVRQGPGKGLEWVSGVSWNSGTIGYADSVKGRFIIIRDNAKNSLYLQMNSLTAEDTALYYCAKDIDYGDNASGGVHYWGQGTLVTVSS
chain 2: QSALTQPASVSGSPGQSITISCTGTNSDVGGYNYVSWYQQHPGKVPKLLIYGVNKRPSGVSNRFSGSKSGNTASLTISGLQAEDEADYYCSSYTTSSTYVFGTGTKVTVL

The binders below were run against SARS-CoV-2 Omicron BA.1 spike pseudovirus (assay: pseudovirus neutralization IC50; higher = weaker neutralization).
Description: (§1)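 Single-round VSV luciferase pseudovirus mixed with antibody dilutions for 1 h and put on Huh-7 cells for about a day; IC50 from the dose curve.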

| Binder | pseudovirus neutralization IC50 |
| --- | --- |
| B1 | > 10 µg/mL |
| B2 | 0.00255 µg/mL |
| B3 | 0.00241 µg/mL |
| B4 | > 10 µg/mL |
| B5 | > 10 µg/mL |
| B6 | 0.0108 µg/mL |
| B7 | 0.874 µg/mL |
| B8 | > 10 µg/mL |
| B9 | > 10 µg/mL |
| B10 | 0.223 µg/mL |
| B11 | > 10 µg/mL |
| B12 | > 10 µg/mL |
| B13 | 0.0847 µg/mL |

These binders were tested against SARS-CoV-2 Omicron BA.2 spike pseudovirus in the same assay as above.
Description: as §1

| Binder | pseudovirus neutralization IC50 |
| --- | --- |
| B1 | > 10 µg/mL |
| B2 | 0.00165 µg/mL |
| B3 | 0.00124 µg/mL |
| B4 | > 10 µg/mL |
| B5 | 0.005 µg/mL |
| B6 | 0.0155 µg/mL |
| B7 | 0.0876 µg/mL |
| B8 | 0.23 µg/mL |
| B9 | > 10 µg/mL |
| B10 | 0.292 µg/mL |
| B11 | > 10 µg/mL |
| B12 | > 10 µg/mL |
| B13 | 0.0806 µg/mL |

Each binder was assayed against SARS-CoV-2 Omicron BA.2.75 spike pseudovirus in the same assay as above.
Description: as §1

| Binder | pseudovirus neutralization IC50 |
| --- | --- |
| B1 | > 10 µg/mL |
| B2 | 0.0167 µg/mL |
| B3 | 0.00161 µg/mL |
| B4 | > 10 µg/mL |
| B5 | > 10 µg/mL |
| B6 | > 10 µg/mL |
| B7 | > 10 µg/mL |
| B8 | > 10 µg/mL |
| B9 | > 10 µg/mL |
| B10 | 0.149 µg/mL |
| B11 | > 10 µg/mL |
| B12 | > 10 µg/mL |
| B13 | 0.0515 µg/mL |

What follows are binders tested against SARS-CoV-2 Omicron BA.5 spike pseudovirus in the same assay as above.
Description: as §1

| Binder | pseudovirus neutralization IC50 |
| --- | --- |
| B1 | > 10 µg/mL |
| B2 | 0.00456 µg/mL |
| B3 | > 10 µg/mL |
| B4 | > 10 µg/mL |
| B5 | 0.0228 µg/mL |
| B6 | 0.0365 µg/mL |
| B7 | > 10 µg/mL |
| B8 | > 10 µg/mL |
| B9 | > 10 µg/mL |
| B10 | 1.52 µg/mL |
| B11 | > 10 µg/mL |
| B12 | > 10 µg/mL |
| B13 | 1.76 µg/mL |

What follows are binders tested against SARS-CoV-2 Omicron BQ.1.1 spike pseudovirus in the same assay as above.
Description: as §1

| Binder | pseudovirus neutralization IC50 |
| --- | --- |
| B1 | > 10 µg/mL |
| B2 | 0.763 µg/mL |
| B3 | > 10 µg/mL |
| B4 | > 10 µg/mL |
| B5 | > 10 µg/mL |
| B6 | 0.0498 µg/mL |
| B7 | > 10 µg/mL |
| B8 | > 10 µg/mL |
| B9 | > 10 µg/mL |
| B10 | > 10 µg/mL |
| B11 | > 10 µg/mL |
| B12 | > 10 µg/mL |
| B13 | > 10 µg/mL |

These binders were tested against SARS-CoV-2 Omicron XBB spike pseudovirus in the same assay as above.
Description: as §1

| Binder | pseudovirus neutralization IC50 |
| --- | --- |
| B1 | > 10 µg/mL |
| B2 | 0.142 µg/mL |
| B3 | > 10 µg/mL |
| B4 | > 10 µg/mL |
| B5 | > 10 µg/mL |
| B6 | > 10 µg/mL |
| B7 | > 10 µg/mL |
| B8 | > 10 µg/mL |
| B9 | > 10 µg/mL |
| B10 | > 10 µg/mL |
| B11 | > 10 µg/mL |
| B12 | > 10 µg/mL |
| B13 | 3.23 µg/mL |

What follows are binders tested against SARS-CoV-2 early D614G spike pseudovirus in the same assay as above.
Description: as §1

| Binder | pseudovirus neutralization IC50 |
| --- | --- |
| B1 | 0.549 µg/mL |
| B2 | 0.00411 µg/mL |
| B3 | 0.00136 µg/mL |
| B4 | 0.324 µg/mL |
| B5 | 0.00527 µg/mL |
| B6 | 0.00459 µg/mL |
| B7 | 0.00111 µg/mL |
| B8 | 0.00241 µg/mL |
| B9 | > 10 µg/mL |
| B10 | 0.0954 µg/mL |
| B11 | > 10 µg/mL |
| B12 | > 10 µg/mL |
| B13 | 0.088 µg/mL |
